# Test results: US10370401B2, “Substituted nucleosides, nucleotides and analogs thereof” (Alios BioPharma, Inc., priority 2013, dated 2019)
# Protein sequences, listed by entry. Tags and fused reporters are not part of them. Residues count along the entry.
# UniProt Q82122, 1694-2153 limits assumed: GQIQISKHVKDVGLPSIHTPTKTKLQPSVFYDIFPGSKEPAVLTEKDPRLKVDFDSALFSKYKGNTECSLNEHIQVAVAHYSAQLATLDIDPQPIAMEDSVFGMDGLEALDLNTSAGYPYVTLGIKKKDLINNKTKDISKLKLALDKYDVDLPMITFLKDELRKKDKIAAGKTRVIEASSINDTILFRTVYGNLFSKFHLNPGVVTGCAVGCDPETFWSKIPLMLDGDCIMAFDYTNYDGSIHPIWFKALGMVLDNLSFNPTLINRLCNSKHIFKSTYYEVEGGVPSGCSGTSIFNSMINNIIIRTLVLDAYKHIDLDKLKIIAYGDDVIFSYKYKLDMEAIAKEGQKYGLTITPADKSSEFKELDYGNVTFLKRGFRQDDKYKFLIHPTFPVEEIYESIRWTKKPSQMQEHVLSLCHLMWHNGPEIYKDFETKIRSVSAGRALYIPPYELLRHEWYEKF
# What was measured:
# [1] = target: human rhinovirus 16 polymerase (HRV16pol) (Human rhinovirus 16, UniProt Q82122); assay: Picornavirus polymerase inhibition assay; assay type: biochemical; conditions: 2.5 h at 30° C., mean of several independent experiments
# NS5B570-Con1 (Delta-21) = NS5B570-Con1 (Delta-21) (Hepatitis C virus genotype 1b, UniProt Q9WMX2); assay: NS5B inhibition assay; assay type: biochemical, HCV; conditions: NS5B570-Con1, 2 hours at 37° C., mean of several independent experiments
Compound,IC50 [1] [µM],IC50 (NS5B570-Con1 (Delta-21)) [µM]
[N-]=[N+]=NC[C@]1(COP(=O)(O)OP(=O)(O)OP(=O)(O)O)O[C@@H](n2cnc3c(=O)[nH]c(N)nc32)[C@H](F)[C@@H]1O,< 10,–
"C[C@]1(O)[C@H](n2ccc(=O)[nH]c2=O)O[C@](F)(COP(O)(=S)OP(=O)(O)OP(=O)(O)O)[C@H]1O (single isomer, unassigned) [116]",< 10,< 1
O=c1ccn([C@@H]2O[C@](CF)(COP(=O)(O)OP(=O)(O)OP(=O)(O)O)[C@@H](O)C2(F)F)c(=O)[nH]1,< 10,10 to 100
"C[C@]1(O)[C@H](n2ccc(=O)[nH]c2=O)O[C@](F)(COP(O)(=S)OP(=O)(O)OP(=O)(O)O)[C@H]1O (single isomer, unassigned) [117]",< 100,1 to 10
[N-]=[N+]=NC[C@]1(COP(=O)(O)OP(=O)(O)OP(=O)(O)O)O[C@@H](n2ccc(=O)[nH]c2=O)[C@H](F)[C@@H]1O,< 10,10 to 100
